Compound potency records, mixed from different reports. Data source: NIAID ChemDB in PubChem.

Shared fields: enzyme or target tests; protein: CCR5; measure: IC50

ICn is the concentration giving n% inhibition.

structure | method | result
O=C(Nc1ccc(Cl)cc1)N(CCCN1CCC(Cc2ccc(F)cc2)CC1)c1ccccc1 | radiometric | 0.0078 µM
CCCCOCCOc1ccc(-c2ccc3c(c2)C=C(C(=O)Nc2ccc(CN(C)C4CCOCC4)cc2)CCS3(=O)=O)cc1 | radiometric | 0.027 µM
CC(=O)N1CCC(C(=O)N(CCCN2CCC(Cc3ccccc3)CC2)c2ccc(Cl)c(Cl)c2)CC1 | radiometric | 0.0019 µM
Cc1ccc(N(CCCN2CCC(Cc3ccccc3)CC2)C(=O)Nc2ccc(Cl)cc2)cc1 | radiometric | 0.011 µM
CS(=O)(=O)N(CCCN1CCC(Cc2ccccc2)CC1)c1ccccc1 | radiometric | ~10 µM
CCN(C(=O)Cc1ccc(S(C)(=O)=O)cc1)C1CCN(CC[C@H](NC(=O)C2CCN(C(=O)c3ccccc3)CC2)c2ccccc2)CC1 | fluorescence | <50 µM
CN1CC(C(=O)N(CCCN2CCC(Cc3ccccc3)CC2)c2ccccc2)CC1=O | radiometric | 0.48 µM
Cc1ccc(-c2ccc3c(c2)C=C(C(=O)Nc2ccc(C[N+](C)(C)C4CCOCC4)cc2)CCC3)cc1 | radiometric | 0.0014 µM
CN1CC(C(=O)N(CCCN2CCC(CCc3ccccc3)CC2)c2ccccc2)CC1=O | radiometric | 1.1 µM
CC(=O)N1CCC(C(=O)N(CCCN2CCC(Cc3ccc(F)cc3)CC2)c2ccc(C)c(Cl)c2)CC1 | radiometric | 0.00029 µM
CCCCOCCOc1ccc(-c2ccc3c(c2)C=C(C(=O)Nc2ccc(CN(C)C4CCOCC4)cc2)CCN3Cc2nccs2)cc1 | radiometric | 0.012 µM
COc1ccc(CC2CCN(CCCN(C(=O)C3CCN(S(C)(=O)=O)CC3)c3ccc(Cl)c(Cl)c3)CC2)cc1 | radiometric | 0.0079 µM
CCCOCCOc1ccc(-c2ccc3c(c2)C=C(C(=O)Nc2ccc(CN(C)C4CCOCC4)cc2)CCN3CC)cc1 | radiometric | 0.017 µM
C=CCOC(=O)N[C@@H](CCN1CCC(N(CC)C(=O)Cc2ccc(S(C)(=O)=O)cc2)CC1)c1ccccc1 | fluorescence | <50 µM
CCCCOCCOc1ccc(-c2ccc3c(c2)C=C(C(=O)Nc2ccc(S(=O)Cc4ccncc4)cc2)CCN3CC(C)C)cc1 | radiometric | 0.16 µM
CN(Cc1ccc(NC(=O)C2=Cc3cc(-c4ccc(N5CCOCC5)cc4)ccc3S(=O)(=O)CC2)cc1)C1CCOCC1 | radiometric | 0.07 µM
CCN(C(=O)Cc1ccc(S(C)(=O)=O)cc1)C1CCN(CC[C@H](NC(=O)OCC(C)C)c2ccccc2)CC1 | fluorescence | <50 µM
CN1CC(C(=O)N(CCCN2CCC(Cc3ccccc3)CC2)c2ccccc2)CC1=O | radiometric | 0.48 µM
O=C(C1CCNCC1)N(CCCN1CCC(Cc2ccccc2)CC1)c1ccccc1 | radiometric | 4.3 µM
O=C(Nc1ccc(F)cc1)N(CCCN1CCC(Cc2ccc(F)cc2)CC1)c1ccccc1 | radiometric | 0.013 µM
CC(=O)N1CCC(C(=O)N(CCN2CCC(Cc3ccc(F)cc3)CC2)c2ccc(Cl)c(Cl)c2)CC1 | radiometric | 0.48 µM
CCCCOCCOc1ccc(-c2ccc3c(c2)C=C(C(=O)Nc2ccc(CN(C)C4CCOCC4)cc2)CCN3CC(C)C)cc1 | radiometric | 0.0036 µM
CN1CC(C(=O)N(CCCN2CCC(Oc3ccccc3)CC2)c2ccccc2)CC1=O | radiometric | 1.6 µM
CCCCOCCOc1ccc(-c2ccc3c(c2)C=C(C(=O)Nc2ccc(CN(C)C4CCOCC4)cc2)CCN3CC)cc1 | radiometric | 0.0056 µM
c1ccc(CC2CCN(CCCNc3ccccc3)CC2)cc1 | radiometric | >10 µM
CCCCOCCOc1ccc(-c2ccc3c(c2)C=C(C(=O)Nc2ccc(S(=O)Cc4ncnn4C)cc2)CCN3CC(C)C)cc1 | radiometric | 0.035 µM
CCCNC(=O)N(CCCN1CCC(Cc2ccccc2)CC1)c1ccccc1 | radiometric | 0.062 µM
CCCCOCCOc1ccc(-c2ccc3c(c2)C=C(C(=O)Nc2ccc(S(=O)Cc4nccn4CC(C)C)cc2)CCN3CC(C)C)cc1 | radiometric | 0.0087 µM
CCN(C(=O)Cc1ccc(S(C)(=O)=O)cc1)C1CCN(CC[C@H](NC(=O)C2CCN(S(=O)(=O)C(C)C)CC2)c2ccccc2)CC1 | fluorescence | <50 µM
CCCCOCCOc1ccc(-c2ccc3c(c2)C=C(C(=O)Nc2ccc(S(=O)c4ccccn4)cc2)CCN3CCC)cc1 | radiometric | 0.45 µM
CCN(C(=O)Cc1ccc(S(C)(=O)=O)cc1)C1CCN(CC[C@H](NC(=O)OCC(Cl)(Cl)Cl)c2ccccc2)CC1 | fluorescence | <50 µM
CCCCOCCOc1ccc(-c2ccc3c(c2)C=C(C(=O)Nc2ccc(S(=O)Cc4ccccn4)cc2)CCN3CC(C)C)cc1 | radiometric | 0.038 µM
O=C(O)c1ccc(NC(=O)N(CCCN2CCC(Cc3ccc(F)cc3)CC2)c2ccccc2)cc1 | radiometric | 0.35 µM

The first 3 rows once more:

O=C(Nc1ccc(Cl)cc1)N(CCCN1CCC(Cc2ccc(F)cc2)CC1)c1ccccc1 ; method: radiometric ; result: 0.0078 µM
CCCCOCCOc1ccc(-c2ccc3c(c2)C=C(C(=O)Nc2ccc(CN(C)C4CCOCC4)cc2)CCS3(=O)=O)cc1 ; method: radiometric ; result: 0.027 µM
CC(=O)N1CCC(C(=O)N(CCCN2CCC(Cc3ccccc3)CC2)c2ccc(Cl)c(Cl)c2)CC1 ; method: radiometric ; result: 0.0019 µM

Rows are shuffled and stem from different studies.